Results of unrelated studies side by side (data: NIAID ChemDB).

All rows: whole-cell or culture tests; agent: Herpes simplex virus 1; endpoint: EC50

ECn is the concentration giving n% inhibition of infection, replication or growth. Blank or dashed fields: not listed here. Lines come from different laboratories, so protocols vary.

smiles | strain | cells | read by | value
CCCNCc1ccc(CNCc2c(CC)c(CNCc3ccc(CNCCC)[nH]3)c(CC)c(CNCc3ccc(CNCCC)[nH]3)c2CC)[nH]1 | KOS | Human embryonic lung fibroblasts | cytopathic effect | >20 µM
Nc1nc2c(ncn2CC[C@@H](O)CO)c(=O)[nH]1 | C42 | BHK | plaque count | 14.5 µM
CSc1nsc(-c2ccc(OCCCOc3ccc([N+](=O)[O-])cc3)cc2)c1C#N | F | HEP-2/L-929/VERO | plaque count | >0.5 µM
COCC(=O)NC(CCSC[C@H]1O[C@@H](n2ccc3c(N)ncnc32)[C@H](O)[C@@H]1O)C(=O)OC(C)C | KOS | PRK/E6SM | cytopathic effect | 150 µg/mL
[O-][n+]1onc2c(N3CC[N+]4(CC3)CC[N+]3(CCN(c5ncnc6no[n+]([O-])c56)CC3)CC4)ncnc21 | - | GMK | cytopathic effect | 16.17 µg/mL
Nc1nc2c(ncn2CC2(OCP(=O)(O)O)CC2)c(=O)[nH]1 | - | HepG2 2.2.15 | - | >30 µM
Nc1nc2c(ncn2COC(CO)CO)c(=O)[nH]1 | KOS | Human embryonic lung fibroblasts | cytopathic effect | 0.05 µM
NC1=Nn2c(nnc2-c2cn(-c3ccccc3)nc2-c2ccccc2)SC1 | KOS | HEL | cytopathic effect | >16 µg/mL
OCC(O)COCc1c(Cl)nc2cc(Cl)c(Cl)cn12 | KOS | BSC-1 | ELISA | >100 µM
Cc1cn(CC2(OCP(=O)(O)O)CC2)c(=O)[nH]c1=O | - | HEPG2 2.2.17 | - | >30 µM
C=CCNC(=S)NNC(=O)c1cc(-c2cc(F)cc(F)c2)ccc1O | KOS | HELA/VERO/HEL | cytopathic effect | 9.6 µg/mL
O=[N+]([O-])c1c(Cl)nc(C(F)(F)F)nc1N1CC[N+]2(CC1)CC[N+]1(CCN(c3nc(C(F)(F)F)nc(Cl)c3[N+](=O)[O-])CC1)CC2 | - | GMK | cytopathic effect | 24.55 µg/mL
O=C(O)CP(=O)(O)O | McIntyre | MEF | plaque count | 30.8 µg/mL
Nc1ncnc2c1ncn2[C@@H]1O[C@H](CO)[C@@H](O)[C@@H]1O | Clinical isolate Wilson | MEF | plaque count | 11 µM
Nc1ccn([C@@H]2O[C@H](CO)[C@@H](O)[C@@H]2O)c(=O)n1 | KOS-M1 | VERO | plaque count | 0.2 µM
O=c1[nH]n2c(-c3cn(-c4ccccc4)nc3-c3ccccc3)nnc2sc1=O | KOS (TK-) | HEL | cytopathic effect | >80 µg/mL
Nc1nc2c(ncn2CC[C@H](O)CO)c(=O)[nH]1 | C42 | BHK | plaque count | 33 µM
Nc1nc2c(ncn2COCCO)c(=O)[nH]1 | KOS | HSF | cytopathic effect | 0.1 µg/mL
CCc1c(CN)c(CC)c(CN)c(CC)c1CN | TK- KOS ACVr | Human embryonic lung fibroblasts | cytopathic effect | >100 µM
COCc1cn([C@H]2C[C@H](O)[C@@H](CO)O2)c(=O)[nH]c1=O | 76 | RK-13 | plaque count | 7 µM
O=[N+]([O-])c1c(N2CC[N+]3(CC2)CC[N+]2(CCNCC2)CC3)ncnc1N1CC[N+]2(CC1)CC[N+]1(CCNCC1)CC2 | - | GMK | cytopathic effect | 5.67 µg/mL
CCOC(=O)c1ccc(OCCCCOc2ccc(-c3snc(SC)c3C#N)cc2)cc1 | F | HEP-2/L-929/VERO | plaque count | >2 µM
O=c1[nH]c(=O)n([C@H]2C[C@H](O)[C@@H](CO)O2)cc1I | KOS | HSF | cytopathic effect | 0.4 µg/mL
Cn1cc(C(=O)NCc2ccc(Cl)cc2)c(=O)c2cc(/C=C\CO)cc(F)c21 | KOS-M1 | VERO | plaque count | >20 µM
Nc1ncnc2c1ncn2C[C@H](O)CO | B2006 (TK-) | PRK | cytopathic effect | >400 µg/mL
CCN(CC)C(=S)Sc1ncnc(N2CC[N+]3(CC2)CC[N+]2(CCN(c4ncnc(SC(=S)N(CC)CC)c4[N+](=O)[O-])CC2)CC3)c1[N+](=O)[O-] | - | GMK | cytopathic effect | 24.44 µg/mL
NC1=CC(c2ccccc2)=Nn2c(nnc2-c2cn(-c3ccccc3)nc2-c2ccccc2)S1 | KOS | HEL | cytopathic effect | >80 µg/mL
CCCCC(=O)OC[C@H]1O[C@@H](n2cnc3c(N)ncnc32)[C@@H](O)[C@@H]1O | E-377 | MEF | plaque count | 12 µM
Nc1nc2c(ncn2COCCO)c(=O)[nH]1 | KOS | Human embryonic lung fibroblasts | cytopathic effect | 0.4 µM
O=c1[nH]c(=O)n([C@H]2C[C@H](O)[C@@H](CO)O2)cc1/C=C/Br | KOS | HSF | cytopathic effect | 0.01 µg/mL
C1CN(CC2CO2)CC[N+]2(C1)CC[N+]1(CCCN(CC3CO3)CC1)CC2 | - | GMK | cytopathic effect | 14.02 µg/mL
C/C(=N\NC(=S)N(C)C1CCCCCC1)c1ccccn1 | HF | BHK-21/4 | plaque count | 0.21 µg/mL
CC(=O)NC(CCSC[C@H]1O[C@@H](n2ccc3c(N)ncnc32)[C@H](O)[C@@H]1O)C(=O)OC(C)C | KOS | PRK/E6SM | cytopathic effect | 100 µg/mL
CCc1cn([C@H]2C[C@H](O)[C@@H](COP(=O)(O)O)O2)c(=O)[nH]c1=O | B2006 (TK-) | HSF | cytopathic effect | ≥820 µg/mL
O=c1[nH]c(=O)n([C@H]2C[C@H](O)[C@@H](CO)O2)cc1/C=C/Br | B2006 (TK-) | PRK | cytopathic effect | >200 µg/mL
Cn1cc(C(=O)NCc2ccc(Cl)cc2)c(=O)c2cc(CN3CCOCC3)ccc21 | F | VERO | plaque count | 2.3 µM
C=C1C[C@@H](OC(=O)c2ccccc2)[C@H]2[C@](C)(C(=O)O)CCC[C@]2(C)C1CC/C(C)=C/CO | HF | HELA229 | plaque count | 1.26 µg/mL
CCc1c(CN[C@@H]2CCCC[C@H]2N)c(CC)c2c(CC)c1CN[C@@H]1CCCC[C@H]1NCc1ccc([nH]1)CN[C@@H]1CCCC[C@H]1NC2 | KOS | Human embryonic lung fibroblasts | cytopathic effect | >20 µM
Nc1nc(=O)n([C@@H]2O[C@H](CO)[C@@H](O)[C@@H]2F)cc1I | KOS | HeLa | cytopathic effect | 0.07 µg/mL
Cn1cc(C(=O)NCc2ccc(Cl)cc2)c(=O)c2cc(CN3CCOCC3)ccc21 | HL-34 | HFF | plaque count | 2.7 µM
Cc1ccc(NC(=S)NNC(=O)c2cc(-c3cc(F)cc(F)c3)ccc2O)cc1 | KOS | HELA/VERO/HEL | cytopathic effect | 0.064 µg/mL
S=c1[nH]nc(-c2cn(-c3ccccc3)nc2-c2ccccc2)o1 | KOS (TK-) | HEL | cytopathic effect | >16 µg/mL
c1c[nH]c(CNCc2c(CNCc3ccc[nH]3)c(CNCc3ccc[nH]3)c(CNCc3ccc[nH]3)c(CNCc3ccc[nH]3)c2CNCc2ccc[nH]2)c1 | KOS | Human embryonic lung fibroblasts | cytopathic effect | >20 µM
CCc1cn([C@H]2C[C@H](O)[C@@H](CO)O2)c(=O)[nH]c1=O | KOS | HSF | cytopathic effect | 2.7 µg/mL
Nc1nc(Cl)c2ncn(CC3(OCP(=O)(O)O)CC3)c2n1 | - | HEPG2 2.2.21 | - | >30 µM
c1c[nH]c(CNCc2cc(CNCc3ccc[nH]3)c(CNCc3ccc[nH]3)cc2CNCc2ccc[nH]2)c1 | TK- KOS ACVr | Human embryonic lung fibroblasts | cytopathic effect | >100 µM
OCCOCc1c(Cl)nc2cc(Cl)c(Cl)cn12 | KOS | BSC-1 | ELISA | >100 µM
O=C(NCc1ccc(Cl)cc1)c1cn2c3c(cc(CN4CCOCC4)cc3c1=O)OC(c1cccnc1)C2 | SC16-S1 (acyclovir-resistant) | HFF | plaque count | 5.9 µM
C/C(=N\NC(N)=S)c1ccccn1 | HF | BHK-21/4 | plaque count | 1.1 µg/mL
CCOC(=O)CSc1nnc(-c2cn(-c3ccccc3)nc2-c2ccccc2)n1N | KOS | HEL | cytopathic effect | >80 µg/mL
Clc1cc2nc(Cl)c(COCc3ccccc3)n2cc1Cl | KOS | BSC-1 | ELISA | >100 µM
CCOc1nc(N)nc2c1ncn2CC1(OCP(=O)(O)O)CC1 | - | HEPG2 2.2.22 | - | >30 µM
CCOC(=O)c1ccc(OCCC2CCN(c3ccc(C)nn3)CC2)cc1 | F | HEP-2/L-929/VERO | plaque count | >19 µM
CCc1cc(CC)c(CNCc2ccc[nH]2)c(CC)c1CNCc1ccc[nH]1 | KOS | Human embryonic lung fibroblasts | cytopathic effect | >0.8 µM
Nc1ccn([C@@H]2O[C@H](CO)[C@@H](O)[C@@H]2O)c(=O)n1 | KOS | T-21 | cytopathic effect | 0.04 µg/mL
C/C(=N\NC(=S)NC12CC3CC(CC(C3)C1)C2)c1ccccn1 | HF | BHK-21/4 | plaque count | 4.6 µg/mL
CSc1nsc(-c2ccc(OCCCCOc3ccc([N+](=O)[O-])cc3)cc2)c1C#N | F | HEP-2/L-929/VERO | plaque count | >0.5 µM

The last 7 rows once more:

smiles | strain | cells | read by | value
Clc1cc2nc(Cl)c(COCc3ccccc3)n2cc1Cl | KOS | BSC-1 | ELISA | >100 µM
CCOc1nc(N)nc2c1ncn2CC1(OCP(=O)(O)O)CC1 | - | HEPG2 2.2.22 | - | >30 µM
CCOC(=O)c1ccc(OCCC2CCN(c3ccc(C)nn3)CC2)cc1 | F | HEP-2/L-929/VERO | plaque count | >19 µM
CCc1cc(CC)c(CNCc2ccc[nH]2)c(CC)c1CNCc1ccc[nH]1 | KOS | Human embryonic lung fibroblasts | cytopathic effect | >0.8 µM
Nc1ccn([C@@H]2O[C@H](CO)[C@@H](O)[C@@H]2O)c(=O)n1 | KOS | T-21 | cytopathic effect | 0.04 µg/mL
C/C(=N\NC(=S)NC12CC3CC(CC(C3)C1)C2)c1ccccn1 | HF | BHK-21/4 | plaque count | 4.6 µg/mL
CSc1nsc(-c2ccc(OCCCCOc3ccc([N+](=O)[O-])cc3)cc2)c1C#N | F | HEP-2/L-929/VERO | plaque count | >0.5 µM